Results of unrelated studies side by side (data: NIAID ChemDB).

Inhibition is in % at the dose shown (toxicity tests: loss of growth or viability).

O=C(c1ccco1)N1CCN(c2cncc(-c3cccc(CO)c3)n2)CC1 ; protein: UL97 kinase ; measure: IC50 ; organism: Cytomegalovirus ; test: target ; result: <100 µM
C=CCc1ccc(OC)c(OC)c1 ; strain or isolate: 2833 ; measure: MIC90 ; organism: Candida tropicalis ; method: turbidity ; test: culture ; result: 345 µg/mL
Nc1ccc2cc([N+](=O)[O-])cc(S(=O)(=O)[O-])c2c1 ; cell line: Human conjunctiva cells ; measure: inhibition ; organism: Herpes simplex virus ; method: cytopathic effect ; tested at: 10 µg/mL ; test: culture ; result: 0%
CCOC(=O)/C=C/[C@H](C[C@@H]1CCNC1=O)NC(=O)[C@@H](CC(=O)[C@@H](NC(=O)c1cc(C)on1)C(C)C)Cc1ccc(F)cc1 ; cell line: OHIO HELA-I ; strain or isolate: Isolate 40 ; measure: EC50 ; organism: Rhinovirus ; method: cytopathic effect / visual reading ; test: culture ; result: 0.01 µg/mL
Fc1ccc(N2CCCCC2)c(NC(=S)c2ccncc2)c1 ; protein: LKB1 ; measure: inhibition ; method: kinase activity ; tested at: 10 µM ; test: host protein ; result: -3%
O=C1C(c2[nH]c3ccc(S(=O)(=O)O)cc3c2O)=Nc2ccc(S(=O)(=O)O)cc21 ; cell line: Human amnion AV3 cells ; measure: inhibition ; organism: Rhinovirus ; method: cytopathic effect ; tested at: 50 µg/mL ; test: culture ; result: 0%
CCO/N=C/c1ccc(OCCC2CCN(c3ccc(Cl)nn3)CC2)cc1 ; cell line: KB ; strain or isolate: 106F (LDL receptor group 30) ; measure: EC50 ; organism: Rhinovirus ; method: neutral red ; test: culture ; result: 0.052 µM
Cc1ccc(N2CCN(c3cncc(-c4ccc(C(F)(F)F)cc4)n3)CC2)cc1 ; protein: UL97 kinase ; measure: inhibition ; organism: Cytomegalovirus ; tested at: 1 µM ; test: target ; result: <50%
CC(=O)N[C@H]1[C@H]([C@H](O)[C@H](O)CO)OC(C(=O)O)=C[C@@H]1N=C(N)N ; cell line: MDCK ; strain or isolate: H1N1 A/NWS/33 ; measure: EC50 ; organism: Influenza A virus ; test: culture ; result: >100 µM
Fc1ccc(N2CCN(c3cncc(-c4ccc(C(F)(F)F)cc4)n3)CC2)c(F)c1 ; protein: UL97 kinase ; measure: IC50 ; organism: Cytomegalovirus ; test: target ; result: <10 µM
Nc1ccc2c(O)cc(S(=O)(=O)[O-])cc2c1S(=O)(=O)[O-] ; cell line: Human amnion AV3 cells ; strain or isolate: TYPE 3 ; measure: inhibition ; organism: Adenovirus ; method: cytopathic effect ; tested at: 50 µg/mL ; test: culture ; result: 0%
COc1ccccc1N1CCN(c2cncc(-c3csc4ccccc34)n2)CC1 ; protein: UL97 kinase ; measure: inhibition ; organism: Cytomegalovirus ; tested at: 10 µM ; test: target ; result: >15%
O=S(=O)([O-])c1ccc2c(S(=O)(=O)[O-])cc(S(=O)(=O)[O-])cc2c1 ; cell line: Human amnion AV3 cells ; measure: inhibition ; organism: Herpes simplex virus ; method: cytopathic effect ; tested at: 5 µg/mL ; test: culture ; result: 0%
CC(=O)c1ccc(N2CCN(c3cncc(-c4csc5ccccc45)n3)CC2)cc1 ; protein: UL97 kinase ; measure: IC50 ; organism: Cytomegalovirus ; test: target ; result: <10 µM
O=S(=O)([O-])c1ccc(NS(=O)(=O)c2ccccc2)c2c(S(=O)(=O)[O-])cccc12 ; cell line: Human embryonic lung cells ; strain or isolate: TYPE 3 ; measure: inhibition ; organism: Adenovirus ; method: cytopathic effect ; tested at: 5 µg/mL ; test: culture ; result: 0%

2 of the rows above, restated:

compound	protein	cell line	strain or isolate	measure	organism	method	tested at	test	result
C=CCc1ccc(OC)c(OC)c1	-	-	2833	MIC90	Candida tropicalis	turbidity	-	culture	345 µg/mL
O=C1C(c2[nH]c3ccc(S(=O)(=O)O)cc3c2O)=Nc2ccc(S(=O)(=O)O)cc21	-	Human amnion AV3 cells	-	inhibition	Rhinovirus	cytopathic effect	50 µg/mL	culture	0%

Conditions beyond the fields shown may differ between rows. ICn: concentration for n% inhibition. ECn is the concentration giving n% inhibition of infection, replication or growth. A number after MIC or MFC names an inhibition level or a share of isolates. Blank or dashed fields: not listed here.